Test results published in patent publication US7115749B2, “Substituted 5-oxo pyrazoles and [1,2,4]triazoles as antiviral agents” (priority 2004, dated 2006).
The structures given here were assigned with low confidence; some may be wrong.

Amino acid sequences for entries named in this document (tags omitted). A change or cut given only in a name is not applied to a line headed by its entry. Residues count along the entry.
UniProt P26663, 2420-2989 limits assumed, stated change not applied: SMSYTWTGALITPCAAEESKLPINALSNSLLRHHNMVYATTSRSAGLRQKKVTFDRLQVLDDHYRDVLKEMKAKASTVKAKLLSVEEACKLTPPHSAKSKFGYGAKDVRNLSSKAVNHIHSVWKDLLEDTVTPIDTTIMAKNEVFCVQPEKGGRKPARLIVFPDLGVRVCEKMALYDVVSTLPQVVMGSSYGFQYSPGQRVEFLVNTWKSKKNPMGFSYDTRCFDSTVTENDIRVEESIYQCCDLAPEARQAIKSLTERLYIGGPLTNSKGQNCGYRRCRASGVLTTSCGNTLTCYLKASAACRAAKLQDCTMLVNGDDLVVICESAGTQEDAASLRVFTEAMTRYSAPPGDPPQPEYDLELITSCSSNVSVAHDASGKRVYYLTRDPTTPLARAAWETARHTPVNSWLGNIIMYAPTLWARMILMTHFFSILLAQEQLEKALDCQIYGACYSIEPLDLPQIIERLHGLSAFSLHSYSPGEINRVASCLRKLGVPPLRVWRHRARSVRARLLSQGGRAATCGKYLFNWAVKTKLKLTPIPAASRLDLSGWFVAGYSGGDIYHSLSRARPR

Target: HCV RNA-dependent RNA polymerase NS5B (Δ21) (Hepatitis C virus genotype 1b, UniProt P26663)
Experiment: Assay for HCV RNA-dependent RNA polymerase activity (SPA, [3H]-GTP incorporation)
Format: biochemical
Conditions: read-out: Δ21 Activity (IC50 μM); 50 nM NS5B (Δ21), polyC/biotinylated oligoG12, 5 μM GTP, room temperature, three hours; 11 serial 2-fold dilutions (0.05–50 μM), single experiments
Experimental: Assay for HCV RNA-dependent RNA Polymerase Activity
Inhibitory activity of the present compounds against HCV RNA-dependent RNA polymerase was assayed according to the methods disclosed in U.S. Patent Application U.S.2004/038993, content of which is incorporated herein by reference; and those described in Ferrari, E.; Wright-Minogue, J.; Fang, J. W. S.; Baroudy, B. M.; Lau, J. Y. N.; Hong, Z. J. Virol. 1999, 73, 1649.
Briefly, 50 μl reactions containing 20 mM HEPES (pH 7.3), 7.5 mM DTT, 20 units/ml RNasIN, 0.5 ug/ml biotinylated oligoG12, 5 μg/ml polyC, 5 μM GTP, 20 μCi/ml [^3H]-GTP, 10 mM MgCl2, 60 mM NaCl, 100 μg/ml BSA, and 50 nM NS5B (Δ21) were incubated at room temperature for three hours in 96-well plates with or without test compounds. Assay was terminated by the addition of 50 μl 10 mg/ml streptavidin-coated SPA beads supplemented with 100 mM EDTA, and the incorporation of labeled GTP determined by a TopCount Scintillation Counter. IC50 values were calculated from single experiments using 11 serial 2-fold dilutions (0.05–50 μM), and data were considered reliable only when the IC50 value of a positive internal control was within standard deviation range.

O=C(Cn1nc(C(=O)O)cc1OCc1ccccc1-c1ccc(C(F)(F)F)cc1)N[C@H]1CCCC[C@@H]1OCc1ccccc1
IC50: 0.057 µM
